Our source for the Km, kcat and kcat/Km values is article PMC12609799, “Novel Dual-Coenzyme Specificity and Thermostability of Malate Dehydrogenase Identified in the Cyanobacterium Microcystis aeruginosa PCC7806” (International Journal of Molecular Sciences, 2025).

The test system of data set [1] is NC(=O)C1=CN([C@@H]2O[C@H](COP(=O)(O)OP(=O)(O)OC[C@H]3O[C@@H](n4cnc5c(N)ncnc54)[C@H](O)[C@@H]3O)[C@@H](O)[C@H]2O)C=CC1. The experiment in a line: purified protein. The following applies: oxaloacetate reduction, 100 mM Tris-HCl pH 8.0, 25 °C, apparent, varied: cofactor.
Data set [2] deals with NC(=O)C1=CN([C@@H]2O[C@H](COP(=O)(O)OP(=O)(O)OC[C@H]3O[C@@H](n4cnc5c(N)ncnc54)[C@H](OP(=O)(O)O)[C@@H]3O)[C@@H](O)[C@H]2O)C=CC1. The experiment in a line: purified protein. The note with it: oxaloacetate reduction, 100 mM Tris-HCl pH 8.0, 25 °C, apparent, varied: cofactor.

“MaMDH (Ma7806MDH) (Microcystis aeruginosa PCC 7806SL; D44G)”: in data set [1], the Km was 26.160 ± 2.17 µM. In addition, in data set [2], the kcat was 15.6 s⁻¹.
As for “MaMDH (Ma7806MDH) (Microcystis aeruginosa PCC 7806SL; D44G/G48S/H47R/I45S)”, the kcat/Km in data set [1] is 153000 M⁻¹ s⁻¹. Further, in data set [2], the kcat was 26.5 s⁻¹.
For “MaMDH (Ma7806MDH) (Microcystis aeruginosa PCC 7806SL; D44G/G48S/H47R/I45S/L49F/P50Q/V46E)” the same measures were 338000 M⁻¹ s⁻¹ and 54.1 s⁻¹.
For “MaMDH (Ma7806MDH) (Microcystis aeruginosa PCC 7806SL; D44G/G48S/I45S)” the same measures were 125000 M⁻¹ s⁻¹ and 24.3 s⁻¹.
